T1: DENV1 EDIII, polyhistidine-AviTag, produced in HEK-293-6E cells (DENV1)
T1 construct: also called EDIII of DENV1
T1 chain: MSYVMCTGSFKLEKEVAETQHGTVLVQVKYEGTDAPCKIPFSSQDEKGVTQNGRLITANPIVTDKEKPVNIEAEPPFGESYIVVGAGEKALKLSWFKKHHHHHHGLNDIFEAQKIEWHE

T2: WNV EDIII, polyhistidine-AviTag (WNV)
T2 chain: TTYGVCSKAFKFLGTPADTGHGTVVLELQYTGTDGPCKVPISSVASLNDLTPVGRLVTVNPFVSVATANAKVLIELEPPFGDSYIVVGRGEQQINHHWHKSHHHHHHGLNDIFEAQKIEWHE

B1: Z051 (BRA138_59) (antibody, V domains shown)
VH: QVQLQESGPGLVKPSQTLSLTCTVSGVSISSGGYYYSWFRQLPGKGLEWIGHIYYTGNTHYNPSLRSRLTISVDTSKNQFSLKLSSVTAADTARYYCARAWCEYAAYCWFDPWGRGTLVTVSS
VL: EIVLTQSPGTLSLSPGERATLSCRASQSVTSSYLAWYQHKPGQAPRLLIYGASSRAPGIPDRFSGSGSGTDFTLTISRLEPEDFAVYWCQQYGRSPFTFGQGTKLEIK
B2: Z062 (BRA112_70) (antibody, V domains shown)
VH: EVQLVESGGGVVQPGRSLRLSCAASGFSFSSHAMYWVRQAPGKGLEWVAIVSYDGSTKNYADSVKGRFTISRDNSKNTIYLHLNSLRAEDTAVYFCAREVDGIYGYLHYWGQGTLVTVSS
VL: EIVLTQSPATLSLSPGERATLSCRARQNVRNFLAWYQQKPGQAPRLLIYDASNRATDIPARFSGSGSGTDFTLTISSLEPEDFAVYYCQQRSYSITFGQGTRLEIK
B3: Z061 (BRA112_36) (antibody, V domains shown)
VH: EVQLVESGGGVVQPGRSLRLSCAASGFTFSISTIHWVRQAPGKGLEYVVVISHDGNTKYYADSVKGRFIISRDNSKNTVFLQMNSLRPVDTAVYYCARGEVGYFDLWGRGTLVTVSS
VL: EIVLTQSPATLSLSPGERATLSCRASQSVSSFLAWYQQKPGQPPRLLIYDASTRATGIPARFSGSGSGTDFTLTISSLEPEDFAVYYCQQRSNWPPITFGQGTRLEIK

The first experiment concerns the target T1, DENV1 EDIII, polyhistidine-AviTag, …. Kind of experiment: cross-reactivity ELISA. In general terms: An ELISA detects its analyte on a solid surface through an enzyme-linked reagent.
Consider B1, for which the binding result was “no binding (tested: 10 µg/ml)”.
Take B2: the binding result is “no binding (tested: 10 µg/ml)”.
Still for that read-out and setting: the result for B3 reads “no binding (tested: 10 µg/ml)”.

For another experiment, the target named is T2, WNV EDIII, polyhistidine-AviTag. Nature of the experiment: cross-reactivity ELISA.
For B1, the binding result is listed as “no binding (tested: 10 µg/ml)”.
The same measure, in the same setting: in the case of B2 it was “no binding (tested: 10 µg/ml)”; in that of B3, “no binding (tested: 10 µg/ml)”.

(Values after patent US20200147199A1 (ROCKEFELLER UNIVERSITY, published 2020).)
